Results of unrelated studies side by side (data: NIAID ChemDB).

Shared fields: cytotoxicity tests; endpoint: CC50

CCn is the concentration with n% toxicity to the cells.

compound	cell line	read by	value
Nc1nc2c(ncn2C=C2CC2CO)c(=O)[nH]1	MEF		>429 µM
CCCCNc1nccc(-c2c(-c3ccc(F)cc3)nn3c(N4CCN(C)CC4)cccc23)n1	VERO 76		5.5 µM
O=c1cc(CCl)nc2c3ncn([C@H]4C[C@H](O)[C@@H](COP(=O)(O)O)O4)c3ncn12	U-937		150 µM
Nc1ncnc2c1ncn2CC=C(CO)CO	CCL18		>100 µg/mL
Nc1c2c(nc(=O)n1-c1ccccc1)SC(c1ccncc1)C1=C2/C(=C/c2ccncc2)CCC1	CNE-2	MTT	14.7 µM
Nc1nc2c(ncn2C/C=C(/CO)c2ccccc2)c(=O)[nH]1	CCL18		>100 µg/mL
COC(=O)[C@H](C)NP(=O)(OC[C@@H]1C[C@]12C[C@@H]2n1cnc2c(N)ncnc21)Oc1ccccc1	BSC-1		70 µM
CC1=CSC2=NC(/C=C/c3ccccc3Cl)=C(C(=O)/C=C/c3ccccc3Cl)C(c3ccccc3)N12	C1008 (Vero cells)	resazurin	206 µg/mL
CCOC(=O)CCCCCOc1cccc(CN(C(=O)c2ccc(-c3cccc(OCC)c3)cc2)C(C)C)c1	RAJI		>20 µM
O=c1[nH]cnc2c1ncn2CC=C(CO)CO	CCL18		>100 µg/mL
COc1ccc(-c2cc3ccccn3c2)cc1OC	MRC-5	MTT	~400 µM
CC(O)Cn1cnc2cnc(N)nc21	U-937		>100 µM
O=[N+]([O-])c1cccc(-c2cc3ccccn3c2)c1	MRC-5	MTT	100–200 µM
Fc1ccc(-c2nn3c(NN4CCCC4)cccc3c2-c2ccnc(NC3CCCC3)n2)cc1	VERO 76		>40 µM
CCN1C(=O)C(C)c2cc(C(=O)CN3CCN(c4noc5ccccc45)CC3)ccc21	RAW 264.7	MTT	68.56 µg/mL
N#Cc1c(SCc2ccc(Cl)cc2)sc2c(O)cc(=O)[nH]c12	MT-2 human T-cells	MTT	>100 µM
CCN(CC)CCN1C(=O)c2ccccc2NC1c1ccc(F)cc1	HepG2 cells	luminescence	>20 µM
C[C@H]1[C@H](O)[C@@H](C)/C=C/C=C/C=C/C=C/C=C/C=C/C=C/[C@H](O[C@@H]2O[C@H](C)[C@@H](O)[C@H](N)[C@@H]2O)C[C@@H]2O[C@](O)(C[C@@H](O)C[C@@H](O)CC[C@H](O)[C@@H](O)C[C@@H](O)CC(=O)O[C@H]1C)C[C@H](O)[C@H]2C(=O)O	CEM(12D-7)	MTT	>10 µM
COc1ncnc2c1ncn2C(C)CO	U-937		>100 µM
CCN1C(=O)Cc2cc(C(=O)CN3CCN(c4noc5c(Cl)cccc45)CC3)ccc21	RAW 264.7	MTT	82.89 µg/mL
O=c1[nH]cnc2c1ncn2C/C=C(/CO)c1ccccc1	CCL18		>100 µg/mL
CC1=CSC2=NC(/C=C/c3cccc(Cl)c3)=C(C(=O)/C=C/c3cccc(Cl)c3)C(c3ccc(Cl)cc3)N12	C1008 (Vero cells)	resazurin	317.3 µg/mL
O=C1c2ccccc2NC(c2ccc(Cl)cc2)N1C1CC1	HepG2 cells	luminescence	>20 µM
Clc1ccc2c(NCCCNc3nccc(N4CCNCC4)n3)ccnc2c1	CRFK cells	MTS / tetrazolium / absorbance	74 µM
Fc1cccn2cc(-c3ccccc3)cc12	MRC-5	MTT	>500 µM
CCOC(=O)CCCCCOc1cccc(CN(C(=O)c2ccc(-c3cn(S(=O)(=O)c4ccccc4)c4ccccc34)cc2)C(C)C)c1	HEK 293		>20 µM
Nc1c(-c2nccc(=O)[nH]2)ncn1[C@@H]1O[C@H](CO)[C@@H](O)[C@H]1O	PBL		1000 µM
O=C1Sc2nc3c(c(=S)n2C/C1=C/c1ccc(Cl)cc1)C1=C(CCC/C1=C\c1ccncc1)C(c1ccncc1)S3	CNE-2	MTT	17.9 µM
CSc1nsc(-c2ccncc2)c1C#N	L929		2.5 µM
Nc1cccc2c(-c3ccnc(NC4CCCC4)n3)c(-c3ccc(F)cc3)nn12	VERO 76		18 µM
CC1=CSC2=NC(/C=C/c3ccc(OCc4ccccc4)cc3)=C(C(=O)/C=C/c3ccc(OCc4ccccc4)cc3)C(c3ccccc3)N12	C1008 (Vero cells)	resazurin	>500 µg/mL
CC(C)(C)NC(=O)CN(C(=O)[C@H]1CC[C@@]2(C)C3CC=C4C[C@@H](O)CC[C@]4(C)C3CC[C@]12C)c1ccccc1	Vero cells	crystal violet	144 µM
Cc1cn([C@H]2C=C[C@@H](CO)O2)c(=O)[nH]c1=O	JM		500 µM
C#Cc1cn([C@@H]2O[C@H](CO)[C@@H](O)[C@@]2(C)O)c2ncnc(N)c12	ET		>50 µM
CCCCc1ccc2cc(-c3ccccc3)cn2c1	MRC-5	MTT	>500 µM
N#CC1=C(N)SC(c2ccncc2)C2=C1/C(=C/c1ccncc1)CCC2	CNE-2	MTT	>50 µM
Nc1ccn([C@H]2C=C[C@@H](CO)O2)c(=O)n1	RAJI		13 µM
Cc1cn([C@H]2C=C[C@@H](CNC(=O)CC3(C)C[C@@](C)(O)CO3)O2)c(=O)[nH]c1=O	JM		>500 µM
CN(C)c1nccc(-c2c(-c3ccc(F)cc3)nn3c(NC4CCCC4)cccc23)n1	VERO 76		>40 µM
O=C1OCc2cc(=O)c(O)c(O)c(O)c21	CEM-SS	absorbance	19 µM
CCN1C(=O)Cc2cc(C(=O)CN3CCN(c4noc5cc(Cl)ccc45)CC3)ccc21	RAW 264.7	MTT	78.81 µg/mL
CCN(CC)CCN1C(=O)c2ccccc2NC1c1ccc(Cl)cc1	HepG2 cells	luminescence	>20 µM
COc1cc(/C=C/C(=O)C2=C(/C=C/c3cc(OC)c(OC)c(OC)c3)N=C3SC=C(C)N3C2c2ccccc2)cc(OC)c1OC	C1008 (Vero cells)	resazurin	260 µg/mL
COC(=O)c1c(C)cc(OC)c(O)c(=O)c1OC	CEM-SS	absorbance	32 µM
CCN1C(=O)C(C)c2cc(C(=O)CN3CCN(c4noc5cccc(Cl)c45)CC3)ccc21	RAW 264.7	MTT	61.88 µg/mL
COc1ccc(/C=C/C(=O)C2=C(/C=C/c3ccc(OC)cc3)N=C3SC=C(C)N3C2c2cc(OC)c(OC)c(OC)c2)cc1	C1008 (Vero cells)	resazurin	348 µg/mL
CCN(CC)CCN1C(=O)c2ccccc2NC1c1ccc(OC)c(COc2ccc(F)cc2)c1	HepG2 cells	luminescence	>30 µM
CSc1nsc(-c2cccc(Cl)c2)c1C#N	L929		10 µM
C/C(=C\Cn1cnc2c(=O)[nH]c(N)nc21)CO	CCL18		>100 µg/mL
CCCc1cc(=O)[nH]c(SC(C)C(=O)Nc2cccc(Cl)c2)n1	MT-2 human T-cells	MTT	53 µM
Nc1ccc(-c2nc3ccc(-c4ccc5nc(-c6ccc(N)cc6)[nH]c5c4)cc3[nH]2)cc1	WI38 human lung fibroblasts	sulforhodamine	2.46 µg/mL
CCCCOc1ccc(-c2snc(SC)c2C#N)cc1	L929		>50 µM
c1ccc(-c2cc3ccccn3c2)cc1	MRC-5	MTT	100–500 µM
CC(O)Cn1cnc2c(Cl)nc(N)nc21	PBL		>100 µM
CCN1C(=O)C(C)c2cc(C(=O)CN3CCN(c4noc5c(Cl)cccc45)CC3)ccc21	RAW 264.7	MTT	113 µg/mL
Cc1ccc(OCCn2ccc(=O)[nH]c2=O)c(Cc2ccccc2)c1	MT-2 human T-cells	MTT	72 µM
CC1=CSC2=NC(/C=C/c3ccccc3)=C(C(=O)/C=C/c3ccccc3)C(c3ccc(Cl)cc3)N12	C1008 (Vero cells)	resazurin	320 µg/mL
CSc1nsc(-c2ccccc2)c1C#N	HEP-2		20 µM
CC1C(=O)N(C)c2ccc(C(=O)CN3CCN(c4noc5cccc(Cl)c45)CC3)cc21	RAW 264.7	MTT	65.61 µg/mL
CSc1nsc(-c2ccc(C(F)(F)F)cc2)c1C#N	L929		14 µM
N=c1nc(N)c2ncn([C@@H]3O[C@H](CO)[C@@H](O)[C@H]3O)c2c(N)n1	Daudi dividing cells		>50 µM
COc1cccc(-c2ccc(C(=O)N(Cc3cccc(OCCCCCC(=O)OC(=O)O)c3)C(C)C)cc2)c1	BJ		>20 µM
CC(=O)Nc1cn([C@H]2C[C@H](OC(C)=O)[C@@H](COC(C)=O)O2)c(=O)[nH]c1=O	GMK		400 µg/mL
Cc1cc(Cn2cc(CNC(=O)[C@]34CCC(C)(C)CC3C3=CCC5[C@@]6(C)CC[C@H](O)C(C)(C)C6CC[C@@]5(C)[C@]3(C)C[C@H]4O)nn2)c(C)cc1Cn1cc(CNC(=O)[C@]23CCC(C)(C)CC2C2=CCC4[C@@]5(C)CC[C@H](O)C(C)(C)C5CC[C@@]4(C)[C@]2(C)C[C@H]3O)nn1	293T	resazurin	>100 µM
C/C(=C\Cn1cnc2c(=O)[nH]cnc21)CO	CCL18		>100 µg/mL
COc1ccc(C2C(C(=O)/C=C/c3ccc(Cl)cc3)=C(/C=C/c3ccc(Cl)cc3)N=C3SC=C(C)N32)cc1	C1008 (Vero cells)	resazurin	273 µg/mL
CC1C(=O)N(C)c2ccc(C(=O)CN3CCN(c4ccccn4)CC3)cc21	RAW 264.7	MTT	113 µg/mL
CCN(CC)CCN1C(=O)c2ccccc2NC1c1cc(OC)c(OC)c(OC)c1	HepG2 cells	luminescence	>20 µM
COC(=O)[C@H](C)NP(=O)(OCC1C/C1=C/n1cnc2c(=O)[nH]c(N)nc21)Oc1ccccc1	MEF		>206 µM
CC(C)(C)NC(=O)CN(C(=O)[C@H]1CC[C@@]2(C)C3CC=C4C[C@@H](O)CC[C@]4(C)C3CC[C@]12C)c1ccc(F)cc1	Vero cells	crystal violet	176 µM
Cc1cn([C@H]2C[C@H](F)C(COC(=O)CCC(=O)OC[C@H]3O[C@@H](O)[C@H](OS(=O)(=O)[O-])[C@H](OS(=O)(=O)[O-])[C@@H]3O[C@@H]3CO[C@@H](O[C@@H]4O[C@H](CO)[C@@H](O[C@@H]5O[C@H](COS(=O)(=O)[O-])C[C@H](O)[C@H]5OS(=O)(=O)[O-])[C@H](O)[C@H]4O)[C@H](O)[C@H]3O)O2)c(=O)[nH]c1=O	P4R5	MTT	>100 µg/mL
Clc1ccc2c(NCCCNc3nccc(N4CCCC4)n3)ccnc2c1	CRFK cells	MTS / tetrazolium / absorbance	49 µM
COC(=O)[C@H](C)NP(=O)(OC[C@H]1C/C1=C/n1cnc2c(N)nc(N)nc21)Oc1ccccc1	MEF		211 µM
N#Cc1c(Cl)nsc1Cl	L929		4 µM
CCCCNc1nccc(-c2c(-c3ccc(F)cc3)nn3c(N(C)C)cccc23)n1	VERO 76		>40 µM
CSc1nsc(C2CCCCC2)c1C#N	L929		50 µM
CCOC(=O)COc1ccc(C(O)O)cc1	BJ		>20 µM
CSc1nsc(C)c1C#N	L929		100 µM
O=c1[nH]c(=S)[nH]c2c3c([nH]c12)SC(c1ccncc1)C1=C3/C(=C/c2ccncc2)CCC1	CNE-2	MTT	14.1 µM

Repeating the final 6 entries:

compound	cell line	read by	value
N#Cc1c(Cl)nsc1Cl	L929		4 µM
CCCCNc1nccc(-c2c(-c3ccc(F)cc3)nn3c(N(C)C)cccc23)n1	VERO 76		>40 µM
CSc1nsc(C2CCCCC2)c1C#N	L929		50 µM
CCOC(=O)COc1ccc(C(O)O)cc1	BJ		>20 µM
CSc1nsc(C)c1C#N	L929		100 µM
O=c1[nH]c(=S)[nH]c2c3c([nH]c12)SC(c1ccncc1)C1=C3/C(=C/c2ccncc2)CCC1	CNE-2	MTT	14.1 µM

An empty or dashed field is not shown. a–b is a range or a potency band. Neighbouring rows are from separate reports.